# PubChem BioAssay AID624099 | ICCB-Longwood | 2012
# Test: 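Knock-downs relieving repression by E2 of an HPV18 LCR luciferase reporter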 (primary screen)
# System: human C33A cervical carcinoma cells (HPV-negative) stably expressing BPV1 E2 and an HPV18 LCR luciferase reporter
# Reagents: siRNA pool against human genes, 40 nM
# Time to read-out: 72 h
# Read-out: 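HPV18 LCR reporter light per well, converted to plate-wise z-scores that exclude control wells, and averaged over triplicate plates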
# Scale: mean z-score and z-score: higher = stronger reporter signal, weaker E2 silencing
# Rule for the call: 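Hit if mean z-score reaches 2 and two or more of three replicate z-scores also reach 2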
# In all, the deposit lists about 21,000 reagents; shown is a part drawn at random. In the full data, 497 (2.4%) got an active call. 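Higher z means weaker E2 silencing; only reporter increases were scored, and knock-downs that hurt cell survival may mask genuine repressor factors.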
Target gene,mean z-score,"z-score, replicate A","z-score, replicate B","z-score, replicate C",call
NEURL2 (neuralized E3 ubiquitin protein ligase 2),-0.52,-0.12,-0.64,-0.78,inactive
NDST1 (N-deacetylase and N-sulfotransferase 1),0.65,0.65,0.65,0.64,inactive
HOXD10 (homeobox D10),0,0.16,-0.19,0.03,inactive
TLR5 (toll like receptor 5),0.31,0.06,0.79,0.06,inactive
POFUT2 (protein O-fucosyltransferase 2),-0.03,0.02,-0.02,-0.1,inactive
ZFP36L1 (ZFP36 like 1 zinc finger CCCH-type),-0.23,0.82,-0.5,-0.99,inactive
LOC390812 (retired record),0.88,1.19,0.72,0.73,inactive
KIF3A (kinesin family member 3A),0,-0.27,0.18,0.08,inactive
CDC14A (cell division cycle 14A),0.34,0.04,0.57,0.43,inactive
LOC440320 (retired record),-0.19,0.27,-0.38,-0.46,inactive
HOXC13 (homeobox C13),1.63,1.87,1.47,1.55,inactive
ADRA2B (adrenoceptor alpha 2B),-0.27,-0.46,-0.34,-0.02,inactive
GPX3 (glutathione peroxidase 3),-0.75,-0.97,-0.42,-0.85,inactive
LCE3B (late cornified envelope 3B),3.72,3.94,3.31,3.91,active
LOC391692 (retired record),0.13,-0.75,0.93,0.22,inactive
WDR77 (WD repeat domain 77),-1.56,-1.68,-1.58,-1.43,inactive
IL31RA (interleukin 31 receptor A),-1.03,-0.93,-1.18,-0.97,inactive
"XPA (XPA, DNA damage recognition and repair factor)",-0.1,0.18,-0.44,-0.04,inactive
ZNF426 (zinc finger protein 426),0.35,0.76,0,0.27,inactive
ZNF780B (zinc finger protein 780B),-1,-1.17,-0.97,-0.85,inactive
PRDM16-DT (PRDM16 divergent transcript),-1.29,-1.37,-1.22,-1.27,inactive
IGFL3 (IGF like family member 3),-1.41,-1.62,-1.46,-1.15,inactive
LETR1 (lymphatic endothelial transcriptional regulator lncRNA 1),-0.7,-0.34,-0.96,-0.79,inactive
HS3ST2 (heparan sulfate-glucosamine 3-sulfotransferase 2),-0.01,-0.03,-0.26,0.27,inactive
COL11A2 (collagen type XI alpha 2 chain),-1.06,-0.86,-1.11,-1.2,inactive
DEPP1 (DEPP autophagy regulator 1),0.8,1.2,0.47,0.74,inactive
FAM27E5 (family with sequence similarity E5),-0.18,-0.17,-0.32,-0.06,inactive
LOC138729 (retired record),-0.46,-0.22,-0.72,-0.44,inactive
RAB5IF (RAB5 interacting factor),-0.89,-1.04,-0.97,-0.67,inactive
VSIG10L (V-set and immunoglobulin domain containing 10 like),-0.25,-1.26,0.88,-0.37,inactive
PIGZ,0.79,0.62,0.75,1.01,inactive
CDH23 (cadherin related 23),0.3,0.23,0.45,0.21,inactive
WTAP (WT1 associated protein),-0.27,0,-0.19,-0.63,inactive
OSGEPL1 (O-sialoglycoprotein endopeptidase like 1),0.26,0,0.47,0.31,inactive
LINC00652 (long independently transcribed non-coding RNA 652),1.05,0.67,0.78,1.71,inactive
MAX (MYC associated transcriptional regulator X),-0.83,-0.54,-0.94,-1.02,inactive
UBE2N (ubiquitin conjugating enzyme E2 N),-0.42,-0.28,-0.68,-0.31,inactive
WSB1 (WD repeat and SOCS box containing 1),-1.31,-1.35,-1.22,-1.35,inactive
LOC286161 (retired record),0.68,0.57,0.66,0.8,inactive
KIF20B (kinesin family member 20B),1.4,1.47,1.28,1.46,inactive
ZNF550 (zinc finger protein 550),0.63,1.07,0.53,0.28,inactive
LINC01019 (long independently transcribed non-coding RNA 1019),0.69,0.76,0.54,0.76,inactive
GPR12 (G protein-coupled receptor 12),0.11,0.11,0.37,-0.14,inactive
NGEF (neuronal guanine nucleotide exchange factor),1.31,1.45,1.13,1.36,inactive
HPSE2 (heparanase 2 (inactive)),-0.23,-0.34,-0.43,0.08,inactive
BSN (bassoon presynaptic cytomatrix protein),0.6,0.66,0.73,0.41,inactive
CNOT10 (CCR4-NOT transcription complex subunit 10),1.43,1.52,1.48,1.28,inactive
HNRNPA1 (heterogeneous nuclear ribonucleoprotein A1),0.9,1.29,0.77,0.64,inactive
KIAA1143,-0.32,-0.32,-0.44,-0.18,inactive
COX4I2 (cytochrome c oxidase subunit 4I2),-0.98,-0.83,-1.16,-0.95,inactive
CABP2 (calcium binding protein 2),-0.42,-0.14,-0.75,-0.39,inactive
TRMU (tRNA mitochondrial 2-thiouridylase),0.51,0.65,0.16,0.73,inactive
RIMS1 (regulating synaptic membrane exocytosis 1),1.06,1.12,0.4,1.67,inactive
RIPOR2 (RHO family interacting cell polarization regulator 2),-0.59,-0.71,-0.62,-0.45,inactive
TSGA13 (testis specific 13),0.33,0.22,0.02,0.76,inactive
SGPL1 (sphingosine-1-phosphate lyase 1),0.77,0.99,0.53,0.78,inactive
HSD17B13 (hydroxysteroid 17-beta dehydrogenase 13),2.73,3.03,3.06,2.1,active
SLC9B2,1.17,1.44,1.07,0.99,inactive
DIO2 (iodothyronine deiodinase 2),-1.03,-1.28,-0.63,-1.18,inactive
LOC730218 (retired record),-0.1,0.22,-0.32,-0.19,inactive
NBPF15 (NBPF member 15),-0.03,-0.18,0.1,-0.01,inactive
CDKN1B (cyclin dependent kinase inhibitor 1B),-0.09,0.21,0.07,-0.54,inactive
CBLL2 (Cbl proto-oncogene like 2),0.16,0.07,0.41,-0.01,inactive
LOC390638 (golgin A2 pseudogene),-1.08,-0.98,-1.21,-1.05,inactive
LOC388174 (retired record),1.39,1.09,1.75,1.33,inactive
KHDRBS3,0.29,0.16,0.25,0.46,inactive
TMEM248 (transmembrane protein 248),-0.25,-0.49,-0.03,-0.22,inactive
"HLA-DRA (major histocompatibility complex, class II, DR alpha)",0.94,0.94,0.91,0.96,inactive
HLX (H2.0 like homeobox),0.85,0.73,0.85,0.97,inactive
HJURP (Holliday junction recognition protein),0.74,0.67,0.86,0.7,inactive
ZNF177 (zinc finger protein 177),-0.32,-0.33,-0.24,-0.38,inactive
A2M (alpha-2-macroglobulin),-0.19,0.05,-0.2,-0.43,inactive
LOC400730 (retired record),-0.59,-0.65,-0.83,-0.28,inactive
